Anti-infective test results gathered from many reports (values: NIAID ChemDB through PubChem).

Shared fields: tests in culture; agent: HIV-1

Blank or dashed fields: not listed here.

compound | cells | measure | read by | strain or isolate | changes | value
CCCc1ccc2ccccc2n1 | CEM-4fx | EC50 | - | - | - | 78 µM
COC(=O)c1cc(C(=O)OC)c2c(OC)cc(N)cc2n1 | - | EC50 | p24 | - | - | 0.17 µg/mL
CCOC(=O)c1cc(C(=O)c2ccccc2)n2ccc(C(=O)N[C@@H](C(=O)OC)c3ccccc3)cc12 | H9 | EC50 | ELISA | NL4-3 | - | 49.5 µM
CSc1nc2ccccc2c(=O)n1/N=C1\C(=O)N(CN2CCOCC2)c2ccc(Cl)cc21 | MT-4 | EC50 | cytopathic effect / MTT | IIIB | - | >14 µM
Cc1c(C(Br)c2c(F)cccc2F)nc(N(C)C)[nH]c1=O | MT-4 | EC50 | MTT | IIIB | - | 0.4 µM
COc1cc(Cc2cnc(/N=C3\C(=O)N(CN4CCN(c5ccc([N+](=O)[O-])cc5)CC4)c4ccc(C)cc43)nc2N)cc(OC)c1OC | CEM | EC50 | cytopathic effect | - | - | >37.4 µM
Nc1nc2c(ncn2[C@H]2C=C[C@@H](CO)C2)c(=O)[nH]1 | CEM | EC50 | syncytia | IIIB | - | 2 µM
Nc1ncnc2c1ncn2C[C@H]1C[C@H]1[C@H](O)CO | PBMC | EC50 | - | LAV | - | >100 µM
O=C(CCCN1C(=O)c2ccccc2C1=O)NC(=S)NC(Cc1ncc[nH]1)C(=O)O | MT-4 | EC50 | MTT | IIIB | - | >47.26 µM
O=C1CC2CCC1C1C(=O)N(CCCCN3CCN(c4ccc(F)cc4)CC3)C(=O)C21 | MT-4 | EC50 | MTT | - | - | >100 µM
CCOC(=O)c1cc(C(=O)c2ccc(Cl)cc2)n2ccc(C(=O)NCc3ccccn3)cc12 | H9 | EC50 | ELISA | NL4-3 | - | 98.1 µM
COC(=O)C1CCCN1C(=O)CCCN1C(=O)c2ccccc2C1=O | MT-4 | EC50 | MTT | IIIB | - | >20.38 µM
CCOC(=O)c1cc(C(=O)c2cccc(N)c2)n2ccc(C(=O)NCc3ccccn3)cc12 | H9 | EC50 | ELISA | NL4-3 | - | 22.3 µM
COc1cc(Cc2cnc(/N=C3\C(=O)N(CN4CCN(c5cccc(C(F)(F)F)c5)CC4)c4ccc(C)cc43)nc2N)cc(OC)c1OC | MT-4 | EC50 | cytopathic effect | - | - | >106.2 µM
COC(=O)C(Cc1c[nH]c2ccccc12)NC(=O)CCCN1C(=O)c2ccccc2C1=O | MT-4 | EC50 | MTT | IIIB | - | >4.23 µM
CC1=C[C@@H]([C@H]2O[C@@H]3Cc4c(ccc5c4C=C[C@H]4C(C)(C)O[C@@H]6CC(=O)O[C@@]64C5)[C@@H]3[C@@H]2C)OC1=O | C8166 | EC50 | syncytia | IIIB | - | 9.75 µg/mL
Nc1ncnc2c1ncn2[C@H]1S[C@@H](CO)[C@@H]1CO | PBMC | EC90 | RT activity | xxBRU | - | >100 µM
CCOCn1c(Cc2cc(Cl)cc(Cl)c2)c(CC)c(=O)[nH]c1=O | MT-4 | EC50 | cytopathic effect / MTT | IIIB | - | 0.04 µM
Cc1cn([C@H]2O[C@@H](CO)C[C@@H]2O)c(=O)[nH]c1=O | CEM + CEM-SS | EC50 | cytopathic effect / MTT | - | - | >100 µM
COc1ccc2[nH]c(=O)c(CN(Cc3cccnc3)S(=O)(=O)c3cccc4nsnc34)cc2c1 | OM-10.1 | EC50 | p24 / ELISA | IIIB | - | 0.617 µM
Nc1nc(NC2CC2)c2ncn([C@H]3C=C[C@@H](CO)C3)c2n1 | MM + M/M | EC50 | antigen | BaL | - | 0.1 µM
COc1ccccc1N1CCN(CCCN2C(=O)C3C4CCC(C(=O)C4)C3C2=O)CC1 | MT-4 | EC50 | MTT | - | - | >100 µM
Cc1ncc(-c2cnc(O[C@@H](C)C3CC3)c(F)c2)c(N2CCC(C)(C)CC2)c1[C@H](OC(C)(C)C)C(=O)O | MT-2 | EC50 | luminescence | NL4-3 | - | 0.0078 µM
Nc1nc2c(ncn2C[C@H]2C[C@H]2[C@H](O)CO)c(=O)[nH]1 | PBMC | EC50 | - | LAV | - | >100 µM
CC1(C)CC(=O)C2=C(O1)C1=C[C@@H](C(C)(C)O)O[C@H]1[C@@H](O)C2 | HeLa + C8166 | EC50 | MTT | - | - | >100 µM
O=c1[nH]cnc2c1ncn2C[C@H]1C[C@H]1[C@H](O)CO | PBMC | EC50 | - | LAV | - | >100 µM
CSc1nc2ccccc2c(=O)n1/N=C1\C(=O)N(CN2CCOCC2)c2ccccc21 | MT-4 | EC50 | cytopathic effect / MTT | IIIB | - | >17 µM
CCc1c(Cc2cc(Cl)cc(Cl)c2)n(COC2Cc3ccccc3C2)c(=O)[nH]c1=O | MT-4 | EC50 | cytopathic effect / MTT | IIIB | - | 0.13 µM
CC(C)=CC[C@]12O[C@H]1[C@@H](O)CC1=C2OC(C)(C)CC1=O | HeLa + C8166 | EC50 | MTT | - | - | >100 µM
O=c1ccn([C@H]2S[C@@H](CO)[C@@H]2CO)c(=O)[nH]1 | PBMC | EC90 | RT activity | xxBRU | - | >100 µM
O=C1CC2CCC1C1C(=O)N(CCCN3CCN(c4ccc(F)cc4)CC3)C(=O)C21 | MT-4 | EC50 | MTT | - | - | >100 µM
Cc1ncc(-c2ccc(OCCOc3ccc(Cl)cc3)nc2)c(N2CCC(C)(C)CC2)c1[C@H](OC(C)(C)C)C(=O)O | MT-2 | EC50 | luminescence | NL4-3 | - | 0.0049 µM
NCC(=O)N1CCC[C@H]1C(=O)O | H9 | EC50 | p24 | SF2 | - | >100 µM
Cc1cn([C@H]2O[C@@H](CO)C[C@@H]2F)c(=O)[nH]c1=O | MT-4 | EC50 | RT activity | - | - | >100 µM
O=c1ccn(C[C@H]2C[C@H]2CO)c(=O)[nH]1 | PBMC | EC50 | - | LAV | - | >100 µM
Cc1c(Cl)nc(N(C)C)nc1C(C#N)c1c(F)cccc1F | MT-4 | EC50 | MTT | IIIB | - | 8 µM
N[C@@H](CO[C@@H]1O[C@H](CO)[C@H](O)[C@H](O)[C@H]1O)C(=O)NCCCCCCCCCCCC(F)(F)C(F)(F)C(F)(F)C(F)(F)C(F)(F)C(F)(F)F | CEM + CEM-SS | EC50 | RT activity | LAI | - | 40 µM
COc1nc(N(C)C)nc(Cc2c(F)cccc2F)c1C | C8166 | EC50 | MTT | IIIB | EFV-resistant (K103R V179D P225H) | >67 µM
COc1cc(N)cc2[nH]c(N)cc(=O)c12 | - | EC50 | p24 | - | - | 0.08 µg/mL
COc1ccc(OCCNc2ccc(-c3cnc(C)c([C@H](OC(C)(C)C)C(=O)O)c3N3CCC(C)(C)CC3)nc2)cc1 | MT-2 | EC50 | luminescence | NL4-3 | - | 0.0016 µM
CC(O)Cc1ccc2cccc(O)c2n1 | CEM-4fx | EC50 | - | - | - | 2.7 µM
CC(O)C(NC(=S)NC(=O)CCCN1C(=O)c2ccccc2C1=O)C(=O)O | MT-4 | EC50 | MTT | IIIB | - | >28.54 µM
Cc1ccc(OCCN(C)c2ccc(-c3cnc(C)c([C@H](OC(C)(C)C)C(=O)O)c3N3CCC(C)(C)CC3)nc2)cc1 | MT-2 | EC50 | luminescence | NL4-3 | - | 0.0016 µM
CN(C)CC(O)CN1C(=O)C2C3CCC(C(=O)C3)C2C1=O | MT-4 | EC50 | MTT | - | - | >100 µM
CC(C)n1c(=O)c(O)c2n(c1=O)C(COCc1ccccc1)CN(Cc1ccc(F)cc1)C2=O | MT-4 | EC50 | p24 | - | - | <10 µM
COC(=O)c1cc2c(OC)c(N)ccc2[nH]1 | - | EC50 | p24 | - | - | 1.25 µg/mL
O=C1c2c(O)c(=O)n(C3CCCC3)c(=O)n2CCN1Cc1ccc(F)cc1 | MT-4 | EC95 | p24 | - | - | <10 µM
CSc1nc2ccccc2c(=O)n1/N=C1\C(=O)N(CN2CCCCC2)c2ccc(Br)cc21 | MT-4 | EC50 | cytopathic effect / MTT | IIIB | - | >10 µM
Nc1ccn(C[C@H]2C[C@H]2CO)c(=O)n1 | PBMC | EC50 | - | LAV | - | >100 µM
COc1cc(O)c2c(=O)c(O)c(-c3ccc(OC)c(O)c3)oc2c1 | 1A2 | EC50 | syncytia | deltaTAT/Rev MC99 | - | 79.9 µM
CCCCCCCCCCCCCCNC(=O)[C@H](CS[C@@H]1O[C@H](COS(=O)(=O)O)[C@H](OS(=O)(=O)O)[C@H](OS(=O)(=O)O)[C@H]1NC(C)=O)NC(=O)CCCCCCCCCCC | CEM + CEM-SS | EC50 | RT activity | LAI | - | >10 µM
NCC(=O)N1CCC[C@H]1C(=O)NCC(N)=O | H9 | EC50 | p24 | IIIB | - | 16 µM
CC(C)CCC[C@@H](C)[C@H]1CC[C@H]2[C@@H]3CC=C4C[C@@H](O)CC[C@]4(C)[C@H]3CC[C@]12C | CEM + CEM-SS | EC50 | RT activity | LAI | - | >66 µM
O=c1[nH]cnc2c1ncn2[C@H]1S[C@@H](CO)[C@@H]1CO | PBMC | EC90 | RT activity | xxBRU | - | >100 µM
CSc1nc2ccccc2c(=O)n1/N=C1\C(=O)N(CN(C)C)c2ccccc21 | MT-4 | EC50 | cytopathic effect / MTT | IIIB | - | >11 µM
COc1cccc(OC)c1C(=O)c1nc(N(C)C)nc(OC)c1C | MT-4 | EC50 | MTT | IIIB | - | >8 µM
BrC(Br)=Cc1ccc2ccccc2n1 | CEM-4fx | EC50 | - | - | - | 3.3 µM
Cc1cn([C@@H]2S[C@H](CO)[C@H]2CO)c(=O)[nH]c1=O | PBMC | EC90 | RT activity | xxBRU | - | >100 µM
CCOC(=O)c1cc(C(=O)c2ccccc2)n2ccc(C(=O)NCc3ccccc3)cc12 | H9 | EC50 | ELISA | NL4-3 | - | 50.9 µM
C[C@@H]1CCO[C@H]2Cn3cc(C(=O)NCc4ccc(F)cc4F)c(=O)c(O)c3C(=O)N12 | CBMC | EC50 | RT activity | NL4-3 | M50I | 0.0011 µM
Cc1ncc(-c2ccc(N(C)CCOc3ccc(Cl)cc3F)cn2)c(N2CCC(C)(C)CC2)c1[C@H](OC(C)(C)C)C(=O)O | MT-2 | EC50 | luminescence | NL4-3 | - | 0.002 µM
CC1(C)CCC[C@@]2(C)[C@H]1CC[C@@]1(CO1)[C@@H]2C/C=C1\CCOC1=O | 1A2 | EC50 | syncytia | deltaTAT/Rev MC99 | - | 26.1 µM
COC(=O)c1cc(OC)c2c(OC)cc(N)cc2n1 | - | EC50 | p24 | - | - | 0.12 µg/mL
CC(C)n1c(=O)c(O)c2n(c1=O)CCN(Cc1ccc(F)c(Cl)c1)C2=O | MT-4 | EC50 | p24 | - | - | <10 µM
COc1cc(Cc2cnc(/N=C3\C(=O)N(CN4CCNCC4)c4ccc(C)cc43)nc2N)cc(OC)c1OC | CEM | EC50 | cytopathic effect | - | - | >89.2 µM
C=C1CC[C@H]2C(C)(C)CCC[C@]2(C)[C@H]1CCC1=CC(=O)OC1 | 1A2 | EC50 | syncytia | deltaTAT/Rev MC99 | - | 86.6 µM
COc1cc2c(cc1OCCC(=O)Nc1cc(C(=O)Nc3cc(C(=O)Nc4cc(C(=O)NCCC(=N)N)n(C)c4)n(C)c3)n(C)c1)N=C[C@@H]1CCCN1C2=O | Jurkat cells | EC50 | PCR | - | - | 2.5 µM
CSc1nc2ccccc2c(=O)n1/N=C1\C(=O)N(CN(C)C)c2ccc(Cl)cc21 | MT-4 | EC50 | cytopathic effect / MTT | IIIB | - | >15 µM
CCCCCC=C(c1cc(Cl)c(O)c(C(=O)O)c1)c1cc(Cl)c(O)c(C(=O)O)c1 | CEM + CEM-SS | EC50 | cytopathic effect / XTT | RF | - | >95 µM
CCC/C=C/c1ccc2ccccc2n1 | CEM-4fx | EC50 | - | - | - | 7.9 µM
COc1cccc(F)c1C(=O)c1nc(N(C)C)nc(OC)c1C | MT-4 | EC50 | MTT | IIIB | - | >7.8 µM
Cc1cc(OCCOc2ccc(-c3cnc(C)c([C@H](OC(C)(C)C)C(=O)O)c3N3CCC(C)(C)CC3)nc2)ccc1F | MT-2 | EC50 | luminescence | NL4-3 | - | 0.0009 µM
CC(C)(O)[C@@H]1CC[C@@]2(C)CCC[C@](C)(O)[C@@H]2C1 | 1A2 | EC50 | syncytia | deltaTAT/Rev MC99 | - | 177.2 µM
CCOC(=O)c1cc(C(=O)c2ccccc2)n2ccc(C(=O)NCc3ccco3)cc12 | H9 | EC50 | ELISA | NL4-3 | - | 19.3 µM
O=C1CC2CCC1C1C(=O)N(CCCN3CCN(c4ccccc4)CC3)C(=O)C21 | MT-4 | EC50 | MTT | - | - | >100 µM
CCOCn1c(Cc2ccccc2)c(C(C)C)c(=O)[nH]c1=O | MT-4 | EC50 | cytopathic effect / MTT | NNRTI-resistant (RT Y181C) N119 | RT-Y181C | 44 µM
COc1cc(Cc2cnc(/N=C3\C(=O)N(CN4CCN(c5ccc6c(c5F)c(=O)c(C(=O)O)cn6C5CC5)CC4)c4ccc(C)cc43)nc2N)cc(OC)c1OC | MT-4 | EC50 | cytopathic effect | - | - | 11.6 µM
COC(=O)C(NC(=O)CCCN1C(=O)c2ccccc2C1=O)C(C)C | MT-4 | EC50 | MTT | IIIB | - | >125 µM
CCCCCCCCCCCCCCNC(=O)[C@H](CS[C@@H]1O[C@H](CO)[C@H](O)[C@H](O)[C@H]1NC(C)=O)NC(=O)CCCCCCCCCCC | CEM + CEM-SS | EC50 | RT activity | LAI | - | >18 µM
CSc1nc2ccccc2c(=O)n1/N=C1\C(=O)Nc2ccccc21 | MT-4 | EC50 | cytopathic effect / MTT | IIIB | - | >57 µM

Rows are shuffled and stem from different studies. ECn is the concentration giving n% inhibition of infection, replication or growth.